# Results reported in patent US20170204167A1 (INSTITUTE FOR RESEARCH IN BIOMEDICINE, published 2017).
# B1: FI6 variant 3 (antibody, V domains shown)
# VH: QVQLVESGGGVVQPGRSLRLSCAASGFTFSTYAMHWVRQAPGKGLEWVAVISYDANYKYYADSVKGRFTISRDNSKNTLYLQMNSLRAEDTAVYYCAKDSQLRSLLYFEWLSQGYFDYWGQGTLVTVSS
# VL: DIVMTQSPDSLAVSLGERATINCKSSQSVTFNYKNYLAWYQQKPGQPPKLLIYWASTRESGVPDRFSGSGSGTDFTLTISSLQAEDVAVYYCQQHYRTPPTFGQGTKVEIK
# Experiments:
# Assay in all cases: ELISA on recombinant or purified HA
# [1] = molecular target: HA of H3N2 A/New York/55/04 (influenza A virus H3N2 A/New York/55/04)
# [2] = molecular target: HA of H3N2 A/Wyoming/3/03 (influenza A virus H3N2 A/Wyoming/3/03)
# [3] = molecular target: HA of H3N2 A/Brisbane/10/07 (influenza A virus H3N2 A/Brisbane/10/07)
binder,measurement,setting,value
B1,EC50,[1],0.038 µg/mL
same,EC50,[2],0.023 µg/mL
same,EC50,[3],0.037 µg/mL
